Laboratory results: PubChem BioAssay AID504761 (Drosophila RNAi Screening Center, 2011)

Assay: 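Fly genes whose silencing reduces dengue virus type 2 infection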 (primary screen)
System: D.Mel-2 cells from Drosophila
Reagent: long dsRNA against Drosophila genes
Challenge: infection with dengue virus type 2; dose and infection time not stated
Measurement: 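Cells stained for dengue envelope protein and imaged; percent of infected cells per well on duplicate plates, ranked by infection, with stained nuclei counted for cell number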
Scale: infection score: higher = more virus-infected cells; cell count: higher = more cells in the well
Active means: 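Low infection ranks in the two replicates (chance level up to 0.065) followed by a retest with a 1.5-fold or larger significant decrease, p below 0.05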
Calls: active = confirmed: knock-down lowers infection; inactive = not picked or not confirmed
The deposit covers about 22,000 reagents; this is an unselected part of those with a known target gene and a result. Of all reagents, 116 (0.52%) were called active. 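Calls depend on retest data that are not deposited; infection was ranked per plate without normalising between plates; the unit of the infection score is not given.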 Raw values are not corrected between plates. The numbers tell different reagents against one gene apart. Names joined by + are all predicted targets of the reagent. The record does not give: the amount of reagent, the time to read-out.

target	reagent no.	infection score, replicate 1	infection score, replicate 2	cell count, replicate 1	cell count, replicate 2	activity call
Nepl16	1	1.51	2.27	5942	6342	inactive
CG12159	1	5.76	13.2	3105	4159	inactive
CG33252	1	1.43	2.23	6731	6865	inactive
betaNACtes6 + betaNACtes3	1	17.3	16.6	5609	6775	inactive
Lnk	1	2.32	1.85	6645	6374	inactive
HLH3B	1	8.93	5.86	5813	6710	inactive
HLH3B	2	4.3	4.06	6378	6331	inactive
CG5853	1		0.09		6557	inactive
CG5853	2	5.98	8.93	6874	6037	inactive
CG33124	1	2.53	4.5	6518	6533	inactive
Orc2	1	10.3	14.1	6735	7261	inactive
dikar	1	8.09	4.69	6375	6715	inactive
dikar	2	1.04	3.89	6614	6856	inactive
dikar	3	10.8	3.71	5260	5795	inactive
CG8958	1	10.4	3.5	6539	6626	inactive
CG8958	2	16.2	6.27	4939	2056	inactive
Boh1	1	3.97	6.59	6366	6844	inactive
CG13323 + CG13324	1	15.7	27.9	2375	5822	inactive
CG2611	1	22.4	10.2	6362	6537	inactive
CG2611	2	4.57	4.84	6190	6265	inactive
CG31266	1	1.5	4.21	6659	6952	inactive
CG33181	1	2.24	3.71	6163	6437	inactive
CG33181	2	2.97	3.88	6370	6594	inactive
CG33181	3	20.1	11.1	5813	3504	inactive
CG33459	1	4.38	1.54	6399	6291	inactive
Prp19	1	10.3	8.83	3333	1574	inactive
Prp19	2	2.93	1.08	3989	3990	inactive
Vha100-2	1	8.45	6.59	5820	6771	inactive
Vha100-2	2	5.78	0.27	1073	369	inactive
SLIRP1 + anox	1	6.4	4.56	6220	6468	inactive
mdy	1	4.2	0.8	5926	5839	inactive
mdy	2	12.6	9.43	6607	6246	inactive
Notum	1	1.69	2.37	6105	6463	inactive
CG9646	1	5.91	5.69	6363	6347	inactive
Lcp4	1	10.4	11.7	5824	6559	inactive
Lcp4	2	1.13	2.12	6195	6035	inactive
CG3552	1	0.47	1.81	6114	5902	inactive
Vps36	1	0.66	0.39	5800	6103	inactive
Adgf-C	1	6.18	1.31	5908	6810	inactive
Adgf-C	2	6.37	8.27	6560	6650	inactive
CG10137	1	20.9	7.56	6293	6602	inactive
CG10137	2	16	4.85	5585	1651	inactive
CG10137	3	5.91	13.1	6868	6770	inactive
eIF1	1	1.16	3.94	5933	5349	inactive
eIF1	2	5.03	4.96	6427	5829	inactive
4E-T	1	2.54	8.86	6146	6433	inactive
4E-T	2	8.38	1.61	5025	6705	inactive
CG17065	1	0.6	0.19	5853	5790	active
CG17065	2	16.3	3.02	6615	6551	inactive
nrv1	1	11.2	7.85	5481	5619	inactive
mah	1	8.55	4.67	5741	1177	inactive
mah	2	5.08	13.3	2283	1664	inactive
CG6006	1	1.56	0.92	6161	5624	inactive
CG6006	2	10.2	6.95	6630	6348	inactive
CG7341	1	1.72	9.83	6295	5877	inactive
CG3557	1	4.32	4.49	6252	6127	inactive
Phlpp	1		7.57	476	5310	inactive
Phlpp	2	0.89	9.44	6049	6448	inactive
